This is an account of results in BindingDB's records for 15755666.

SMILES strings stand for the structures.

The target in the test is Neuraminidase (Influenza A virus (strain A/Tern/Australia/G70C/1975 H11N9), UniProt P03472). Description: ASSAY_NAME: Neuraminidase Inhibition Assay DESCRIPTION: A standard fluorimetric assay was used to measure influenza virus neuraminidase activity. The substrate 2 -(4-methylumbelliferyl)-alpha-D-acetylneuraminic acid is cleaved by neuraminidase to yield a fluorescent product that can be quantified. Fluorescence was read using an Aminco-Bowman fluorescence spectrophotometer (excitation, 360 nm; emis. The following applies: pH 6.5.
The term IC50 denotes the concentration that inhibits the measured activity by half. On to `CC(=O)Nc1ccc(C(=O)O)nc1`, for which the IC50 is 2000 µM. The value for `CS(=O)(=O)Nc1c(CN=O)cc(C(=O)O)cc1N=C(N)N` was 80 µM. `CC(=O)Nc1cnc(C(=O)O)cc1N` registered an IC50 of 70 µM. For `CC(=O)Nc1c(N)cc(C(=O)O)nc1N=C(N)N` the value was 4 µM; for `CC(=O)Nc1ccc(C(=O)O)nc1N`, 3000 µM; for `CC(=O)Nc1ccc(C(=O)O)nc1N=C(N)N`, 6 µM. The value for `CS(=O)(=O)Nc1c(N)cc(C(=O)O)nc1N` was 1000 µM.

`CCC(CC)Oc1c(N=C(N)N)cc(C(=O)O)cc1N=C(N)N` registered an IC50 of 3 µM. The value for `CC(=O)Nc1c(N=C(N)N)cc(C(=O)O)cc1N=C(N)N` was 10 µM. `CS(=O)(=O)Nc1c(CO)cc(C(=O)O)cc1N=C(N)N` returned an IC50 of 2000 µM. `CC(=S)Nc1ccc(C(=O)O)nc1` displayed a half-maximal inhibitory concentration (IC50) of 400 µM. For `CS(=O)(=O)Nc1ccc(C(=O)O)nc1` the value was 3000 µM; for `CC(=O)Nc1c(N=C(N)N)cc(C(=O)O)cc1C(O)C(O)CO` (centres undefined), greater than 100 µM; for `CC(=O)Nc1c(CCO)cc(C(=O)O)cc1N=C(N)N`, 400 µM.
